# Tested on: microRNAs 885-3p, 888*, 98, 1262, 1229, 30c-1*, 891b, 302b, 1246, and 502-3p
substance,measurement,value
Aflatoxin B1,"Aggregate result, correct",17/30
